These results are taken from paper PMC8420576 (The EMBO Journal, 2021).

The assay has as its target SARS-CoV-2 Spike protein expressed in transfected HeLa cells (SARS-CoV-2, reference (Wuhan-Hu-1) …, UniProt P0DTC2). As to the kind of experiment: immunostaining of cells or tissue. Particulars: one partner purified.

B1: VHH antibody Re5D06 (VHH)
VHH: QVQLVESGGGLVQPGGSLRLSCAASGITLDYYAIGWFRQAPGKEREGVSRIRSSDGSTNYADSVKGRFTMSRDNAKNTVYLQMNSLKPEDTAVYYCAYGPLTKYGSSWYWPYEYDYWGQGTQVTVSS
notes: also called super-neutralizing VHH Re5D06
B1: the binding result is given as “binds”.
